Measurements reported in PubChem BioAssay AID504761 (Drosophila RNAi Screening Center, 2011).

Assay: 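Fly genes whose silencing reduces dengue virus type 2 infection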 (primary screen)
Cell system: D.Mel-2 cells from Drosophila
Reagents: long dsRNA against Drosophila genes
Challenge: infection with dengue virus type 2; dose and infection time not stated
Measured: 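Per well on two replicate plates, imaging gave the percent of cells positive for viral envelope protein, ranked by infection, and a nuclear count of cells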
Direction: infection score: higher = more virus-infected cells; cell count: higher = more cells in the well
Rule for the call: 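Very low infection ranking in both replicate wells (chance probability at most 0.065), then a retest showing infection dropped 1.5-fold or more at p below 0.05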
Meaning of the calls: active = confirmed: knock-down lowers infection; inactive = not picked or not confirmed
The screen tested about 22,000 reagents; below is a random part of those that have a named target and a result. In the full data, 116 (0.52%) got an active call. 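Calls depend on retest data that are not deposited; infection was ranked per plate without normalising between plates; the unit of the infection score is not given.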 Raw values vary from plate to plate and are shown uncorrected. A number with no mark means an inactive call. The numbers tell different reagents against one gene apart. Names joined by + are all predicted targets of the reagent. Not all columns of the deposit are shown. Not given: the amount of reagent, the time to read-out.

Target gene	reagent no.	infection score, replicate 1	infection score, replicate 2	cell count, replicate 1
CG11029 (GeneID 33804)	1	6.21	1.19	6071
FIG4 (GeneID 33658)	1	1.19	28.5	590
BoYb (GeneID 40512)	1	21	3.41	4490
CG6938 (GeneID 39362)	1	3.17	2.47	6248
CG6938 (GeneID 39362)	2	3.82	7.58	2595
CG15308 (GeneID 50415)	1	5.07	16.6	6000
CG30060 (GeneID 246426)	1	1.23	0.25	6504
JMJD6 (GeneID 42616)	1	9.96	6.58	6805
JMJD6 (GeneID 42616)	2	1.43	0.94	5860
RpLP0-like (GeneID 36058)	1	20.2	19.2	5981
RpLP0-like (GeneID 36058)	2	6.77		1832
CG32212 + hpRNA:CR33940	1	1.2	1.38	6001
CG15368 (GeneID 31861)	1	5.2	1.74	6014
CG15368 (GeneID 31861)	2	4.49	8.44	6687
betaNACtes4 (GeneID 32389)	1	20	17.3	5502
Gr93b (GeneID 117472)	1	2.36	9.73	6345
CG33476 (GeneID 2768727)	1	2.19	9.47	6067
RhoGAP54D (GeneID 36996)	1	13.9	7.18	6513
RhoGAP54D (GeneID 36996)	2	4.63	3.19	6374
Cand1 (GeneID 34403)	1	2.37	5.16	7081
hubl (GeneID 246567)	1	3.83	8.61	6787
Muc68D (GeneID 39326)	1	10.7	8.57	6359
nopo (GeneID 37083)	1	9.5	10.4	6029
Zdhhc8 (GeneID 31887)	1	3.27	3.16	6202
Zdhhc8 (GeneID 31887)	2	3.09	9.5	6146
CG12917 (GeneID 36065)	1	18.1	15.8	5718
Sec63 (GeneID 38819)	1	0.52	4.41	6591
CG8838 (GeneID 33551)	1	2.37	6.75	6284
CG8838 (GeneID 33551)	2	23.3	23.6	6255
CG17564 (GeneID 35205)	1	1.22	3.38	6071
CG17564 (GeneID 35205)	2	6.3	2.21	5902
retinin (GeneID 53564)	1	3.49	5.3	5907
retinin (GeneID 53564)	2	4.23	1.63	5459
CG4892 (GeneID 34949)	1	5.43	1.51	1031
CG43347 (GeneID 31991)	1	0.98	6.43	5523
CG43347 (GeneID 31991)	2	2.99	16.8	6416
CG43347 (GeneID 31991)	3	1.88	4	6154
CG43347 (GeneID 31991)	4	19		5600
Paip1 (GeneID 36913)	1	8.12	13.2	5790
Paip1 (GeneID 36913)	2	7.04	7.75	5951
smal (GeneID 5740323)	1	3.09	2.35	6349
smal (GeneID 5740323)	2	3.43	6.64	6324
smal (GeneID 5740323)	3	3.65	1.19	6349
smal (GeneID 5740323)	4	4.77	9.61	6305
smal (GeneID 5740323)	5	1.04	2.97	5964
smal (GeneID 5740323)	6	17.2	7.92	5889
TM9SF3 (GeneID 38635)	1	1.27	2.58	5752
CG13983 (GeneID 33875)	1	6.27	2.81	5387
CG13983 (GeneID 33875)	2	3.57	3.44	1177
CG15236 (GeneID 35595)	1	1.61	2.93	6317
CG15236 (GeneID 35595)	2	4.56	8.05	6252
CG8671 (GeneID 35400)	1	10.7	4.02	4939
CG8671 (GeneID 35400)	2	18	13.6	3089
CG8671 (GeneID 35400)	3	1.65	7.89	6654
CG32137 (GeneID 39537)	1	5.33	4.19	6174
pwn (GeneID 44011)	1	2.61	2.49	6102
pwn (GeneID 44011)	2	3.83	3.77	6557
Prx6a (GeneID 33493)	1	5.09	1.82	6520

Just “infection score, replicate 1” (6 entries from above):
CG32212 + hpRNA:CR33940: 1.2
CG15368 (GeneID 31861) #1: 5.2
CG15368 (GeneID 31861) #2: 4.49
betaNACtes4 (GeneID 32389): 20
Gr93b (GeneID 117472): 2.36
CG33476 (GeneID 2768727): 2.19
